In US7495027B2, “3-aryl-4-hydroxyfuranone compounds and the human and animal health use thereof” (Wyeth, priority 2003, dated 2009):
Values after ≈ are worked out from the molar mass of the structure shown.

Chains of the proteins cited; added tags and fusions are not shown.
UniProt P17952, whole entry: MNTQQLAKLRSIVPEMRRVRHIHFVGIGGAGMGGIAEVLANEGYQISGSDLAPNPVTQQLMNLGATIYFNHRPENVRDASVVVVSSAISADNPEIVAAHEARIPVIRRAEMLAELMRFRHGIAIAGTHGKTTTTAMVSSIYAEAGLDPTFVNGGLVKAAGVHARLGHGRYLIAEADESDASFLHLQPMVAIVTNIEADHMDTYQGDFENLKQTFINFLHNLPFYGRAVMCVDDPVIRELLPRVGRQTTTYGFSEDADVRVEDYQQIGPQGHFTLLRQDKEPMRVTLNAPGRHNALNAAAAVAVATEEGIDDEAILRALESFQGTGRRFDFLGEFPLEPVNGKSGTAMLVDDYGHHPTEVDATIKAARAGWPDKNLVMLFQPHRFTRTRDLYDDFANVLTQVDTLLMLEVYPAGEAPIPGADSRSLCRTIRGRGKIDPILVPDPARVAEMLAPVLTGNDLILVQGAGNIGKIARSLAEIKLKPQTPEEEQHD
UniProt P0A749, whole entry: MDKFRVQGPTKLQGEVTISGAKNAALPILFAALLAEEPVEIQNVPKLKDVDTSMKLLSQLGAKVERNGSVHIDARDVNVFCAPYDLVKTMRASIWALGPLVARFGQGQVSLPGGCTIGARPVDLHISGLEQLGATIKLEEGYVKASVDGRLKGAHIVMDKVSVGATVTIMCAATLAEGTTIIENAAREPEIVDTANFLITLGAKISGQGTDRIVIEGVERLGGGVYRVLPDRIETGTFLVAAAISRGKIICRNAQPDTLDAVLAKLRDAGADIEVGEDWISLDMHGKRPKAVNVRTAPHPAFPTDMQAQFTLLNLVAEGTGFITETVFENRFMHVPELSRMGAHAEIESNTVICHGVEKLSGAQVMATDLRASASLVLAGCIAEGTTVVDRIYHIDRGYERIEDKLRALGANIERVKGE
UniProt P08373, whole entry: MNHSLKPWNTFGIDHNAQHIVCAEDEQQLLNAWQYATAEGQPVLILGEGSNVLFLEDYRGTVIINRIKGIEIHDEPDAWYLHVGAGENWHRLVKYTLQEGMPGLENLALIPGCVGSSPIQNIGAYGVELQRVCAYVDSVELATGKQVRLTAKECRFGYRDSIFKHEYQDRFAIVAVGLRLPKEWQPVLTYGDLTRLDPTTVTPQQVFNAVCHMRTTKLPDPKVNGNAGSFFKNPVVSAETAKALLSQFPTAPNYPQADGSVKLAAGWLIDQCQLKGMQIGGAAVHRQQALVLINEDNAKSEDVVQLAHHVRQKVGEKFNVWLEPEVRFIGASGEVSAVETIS
UniProt P14900, whole entry: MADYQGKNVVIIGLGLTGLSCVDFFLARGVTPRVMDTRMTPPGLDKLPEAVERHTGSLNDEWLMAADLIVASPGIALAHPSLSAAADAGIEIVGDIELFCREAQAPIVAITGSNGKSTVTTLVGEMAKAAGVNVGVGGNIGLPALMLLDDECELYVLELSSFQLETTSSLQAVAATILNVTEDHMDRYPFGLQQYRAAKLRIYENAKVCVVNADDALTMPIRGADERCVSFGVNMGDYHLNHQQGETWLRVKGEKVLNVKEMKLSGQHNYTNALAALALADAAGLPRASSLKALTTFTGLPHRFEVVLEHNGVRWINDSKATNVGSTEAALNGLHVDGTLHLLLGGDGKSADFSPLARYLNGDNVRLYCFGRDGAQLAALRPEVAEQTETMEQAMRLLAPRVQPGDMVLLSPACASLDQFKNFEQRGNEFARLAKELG

Legend:
[1] = biological target: E. coli Uridine-diphosphate-N-acetvimuramoyl: L-alanine lipase, MurC (Escherichia coli, UniProt P17952); test: Inhibitory activity against MurC (E. coli); settings: (E) E. coli enzyme
Method: S. aureus and E. coli Uridine-diphosphate-N-acetvimuramoyl: L-alanine lipase, MurC
The buffer is prepared from aqueous reagents with the following final concentrations: 83 mM Tris/HCl (pH 8.0), 50 mM MgC12, and 2 mM ATP.
Preparation of Enzyme Solution:
A 1 mg/mL stock solution of MurC is prepared in a buffer consisting of 20 mM Tris/HCl (pH 8.5) with 2.5 μM BME. The stock solution is further diluted with the buffer to give a final enzyme concentration of 100 μg/mL for the E. coli stock solution and 70 μg/mL for the S. aureus stock solution.
Preparation of Test Compound Solutions:
All test solutions are prepared in DMSO as 10 mg/mL, then diluted with 50 mM Tris/HCl (pH 8.5) to 100 μg/mL.
Preparation of Stop Solution:
The stop solution is prepared by stirring 1 part 4.2% ammonium molydbate in 4N HCl with 2 parts 0.045% malachite green for 30 min.
In this evaluation, the inhibitory activity of a test compound against MurC, the enzyme which catalyzes the third step of bacterial cell wall bioxynthesis is determined. […] (Lanzetta et al., Analytical Biochemistry, 1979, 95) Optical density readings are taken at 660 nm using a Molecular Devices Spectra Max 250 with Soft Max software. […]
Using these values the IC50 is determined by linear regression analysis.

[2] = system: staphylococci; test: Minimum inhibitory concentration, microdilution broth method, staphylococci; format: cell-based; settings: Mueller-Hinton broth, 18-22 hours at 35° C.
Method: (§1) Evaluation of the Minimum Inhibitory Concentration of Test Compounds Against A Variety of Bacterial Strains
(§2) In this evaluation the minimal inhibitory concentration (MIC) of test compounds against Gram positive and Gram negative bacteria is performed using the microdilution broth method as recommended by the National Committee for Clinical Laboratory Standards (Approved Standards M7-A5 2000). Mueller-Hinton broth is used for the enterobacteriaceae, staphylococci and enterococci. Streptococci are also tested in Mueller-Hinton broth supplemented with 5% horse blood (LHB). Test organisms include recent clinical isolates that are resistant to methicillin, penicillin and/or vancomycin. […]. The MIC is determined after incubation for 18-22 hours at 35° C. in ambient air.

[3] = system: enterococci; test: Minimum inhibitory concentration, microdilution broth method, enterococci; format: cell-based; settings: Mueller-Hinton broth, 18-22 hours at 35° C.
Method: as §1, §2

[4] = system: Streptococci; test: Minimum inhibitory concentration, microdilution broth method, streptococci; format: cell-based; settings: Mueller-Hinton broth with 5% horse blood, 18-22 hours at 35° C.
Method: as §1, §2

[5] = biological target: E. coli UDP-N-acetylglucosamine enolpyruvoyl transferase, MurA (Escherichia coli, UniProt P0A749); settings: (E) E. coli enzyme
[6] = biological target: E. coli Enopyruvyl-UPD-N-acetylglucosamine reductase, Mur B (Escherichia coli, UniProt P08373); settings: (E) E. coli enzyme
[7] = biological target: E. coli Uridine-diphosphate-N-acetylmuramoyl-L-alanine: D-glutamate liease, MurD (Escherichia coli, UniProt P14900); settings: (E) E. coli enzyme

With O=C1OC(=Cc2cccc(C(F)(F)F)c2)C(O)=C1c1cccc2ccccc12 the “MurC IC50” value [1] was 9 (E) μg/mL, the “MIC S. aureus GC 1131” value ([2]; S. aureus GC 1131) was 8 mg/L (≈ 20.9 µM) and the “MIC S. aureus GC 4543” value ([2]; S. aureus GC 4543) was 8 mg/L (≈ 20.9 µM). The “MIC E. faecalis GC 2242” value ([3]; E. faecalis GC 2242) was 8 mg/L (≈ 20.9 µM), the “MIC E. faecalis GC 4555” value ([3]; E. faecalis GC 4555) was 32 mg/L (≈ 83.7 µM) and the “MIC S. pneumo GC 1894” value [4] was 0.5 mg/L (≈ 1.31 µM). For the same compound, the “MurA IC50” value [5] was 17 (E) μg/mL, the “MurB IC50” value [6] was 11 (E) μg/mL and the “MurD IC50” value [7] was >25 (E) μg/mL.
